Anti-infective test results gathered from many reports (values: NIAID ChemDB through PubChem).

Common to all: whole-cell or culture tests

Percent inhibition refers to the dose given; in toxicity tests it is the harm to the cells. Neighbouring rows are from separate reports. An empty or dashed field is not shown. ECn is the concentration giving n% inhibition of infection, replication or growth.

SMILES | measure | cell line | agent | strain or isolate | tested at | value
Nc1ncnc2c1ncn2[C@@H]1C=C(CO)[C@@H](O)[C@H]1O | EC50 | MK2 | Variola virus | BSH | - | 0.1 µg/mL
CC[C@@H](C(C)C)[C@@H](O)[C@H](O)[C@@H](C)[C@H]1CC[C@H]2[C@@H]3CC(=O)[C@H]4C[C@@H](Br)CC[C@]4(C)[C@H]3CC[C@]12C | EC50 | VERO | Junin virus | IV4454 | - | 0.8 µM
CCOc1ccc(-c2onc(N(CC)CC)c2Cc2c(N(CC)CC)noc2-c2ccc(O)cc2O)c(O)c1 | EC50 | VERO | African swine fever virus | - | - | >17 µM
N=c1ncn(CC2CCCCC2)c2nc[nH]c12 | inhibition | BSC-1 | Vaccinia virus | - | 25 µg/mL | 0%
Cn1cc(NC(=O)c2cc(NC(=O)c3cc(NC(=O)c4cc(NC(=O)c5cc(NC=O)cn5C)cn4C)cn3C)cn2C)cc1C(=O)NCCC(=N)N | inhibition | BSC-1 | Vaccinia virus | Noguchi | 10 µg/mL | 57%
CC[C@@H](C(C)C)[C@H](O)[C@@H](O)[C@@H](C)[C@H]1CC[C@H]2[C@@H]3CC(=O)[C@@]4(O)C[C@@H](Br)CC[C@]4(C)[C@H]3CC[C@]12C | EC50 | VERO | Junin virus | IV4454 | - | 0.4 µM
Clc1ccc2c(c1)C=C(c1ccccc1)CO2 | EC50 | HEP-2 | Poliovirus | TYPE 2 | - | <10 µM
CCN(CC)c1cc(-c2ccc(OC)cc2O)on1 | EC50 | VERO | African swine fever virus | - | - | >381 µM
CC[C@@H](C(C)C)[C@H](O)[C@@H](O)[C@@H](C)[C@H]1CC[C@H]2[C@@H]3CC(=O)[C@H]4C[C@H](O)[C@H](O)C[C@]4(C)[C@H]3CC[C@]12C | EC50 | VERO | Junin virus | IV4454 | - | 6.2 µM
Brc1ccc(C2=Cc3ccccc3OC2)cc1 | inhibition | HEP-2 | Poliovirus | IB (TYPE 2) | 10 µM | 0%
CCn1cnc(=N)c2[nH]cnc21 | inhibition | BSC-1 | Vaccinia virus | - | 25 µg/mL | 0%
Nc1nccc2c1ncn2[C@@H]1C[C@H](CO)[C@@H](O)[C@H]1O | EC50 | LLC-MK2 | Variola virus | Isolate Bangladesh | - | 1.6 µg/mL
Brc1ccc(C2=Cc3cc(Br)ccc3OC2)cc1 | inhibition | HEP-2 | Poliovirus | IA (TYPE 2) | 10 µM | 47%
Nc1nc(=O)n([C@@H]2C=C(CO)[C@@H](O)[C@H]2O)cc1Cl | EC50 | - | Variola virus | Bangladesh 1975 | - | 22.8 µg/mL
N=c1ncn(Cc2ccco2)c2nc[nH]c12 | inhibition | BSC-1 | Vaccinia virus | - | 100 µg/mL | 0%
CC[C@@H](C(C)C)[C@@H](O)[C@H](O)[C@@H](C)[C@H]1CC[C@H]2[C@@H]3CC(=O)[C@@]4(O)C[C@@H](Br)CC[C@]4(C)[C@H]3CC[C@]12C | EC50 | VERO | Junin virus | IV4454 | - | 0.7 µM
Clc1ccc2c(c1)CC(c1ccccc1)CO2 | inhibition | HEP-2 | Poliovirus | SABIN (TYPE 2) | 10 µM | 44%
CCCn1cnc(=N)c2[nH]cnc21 | inhibition | BSC-1 | Vaccinia virus | - | 50 µg/mL | 0%
Nc1ccn([C@@H]2C=C(CO)[C@@H](O)[C@H]2O)c(=O)n1 | EC50 | MK2 | Monkeypox virus | MPX | - | 0.1 µg/mL
Nc1ccn(C[C@@H](CO)OCP(=O)(O)O)c(=O)n1 | EC50 | LLC-MK2 | Variola virus | Isolate Brazil Garcia | - | 2.5 µg/mL
Cn1cc(NC(=O)c2cc(NC(=O)c3cc([N+](=O)[O-])cn3C)cn2C)cc1C(=O)NCCC(=N)N | inhibition | BSC-1 | Vaccinia virus | Noguchi | 75 µg/mL | 0%
CCN(CC)c1cc(-c2ccc(O)cc2O)on1 | EC50 | VERO | African swine fever virus | - | - | >121 µM
Cc1ccccc1Cn1cnc(=N)c2[nH]cnc21 | inhibition | BSC-1 | Vaccinia virus | - | 50 µg/mL | 0%
CCN(CC)c1noc(-c2ccc(O)cc2O)c1Cc1c(N(CC)CC)noc1-c1ccc(OC)cc1O | EC50 | VERO | African swine fever virus | - | - | >3.5 µM
Nc1ccn(C[C@H]2COP(=O)(O)CO2)c(=O)n1 | EC50 | VERO | Variola virus | Isolate V70-222 | - | 23 µg/mL
Nc1nc(=O)n([C@@H]2C=C(CO)[C@@H](O)[C@H]2O)cc1I | EC50 | - | Monkeypox virus | ZAIRE | - | 3.7 µg/mL

Again, the opening 2 rows:

{"SMILES": "Nc1ncnc2c1ncn2[C@@H]1C=C(CO)[C@@H](O)[C@H]1O", "measure": "EC50", "cell line": "MK2", "agent": "Variola virus", "strain or isolate": "BSH", "value": "0.1 µg/mL"}
{"SMILES": "CC[C@@H](C(C)C)[C@@H](O)[C@H](O)[C@@H](C)[C@H]1CC[C@H]2[C@@H]3CC(=O)[C@H]4C[C@@H](Br)CC[C@]4(C)[C@H]3CC[C@]12C", "measure": "EC50", "cell line": "VERO", "agent": "Junin virus", "strain or isolate": "IV4454", "value": "0.8 µM"}